PubChem BioAssay AID1259414 – Drosophila RNAi Screening Center – 2018
Screen: 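Host factors increasing or decreasing Wolbachia levels in cultured fly cells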 (primary screen). System: Drosophila JW18 cells infected with Wolbachia. Reagent: long dsRNA against Drosophila genes, 0.25 µg dsRNA per well of a 384-well plate. Timing: 5 days. Treatment: cells persistently infected with Wolbachia before knock-down; no added drug. Measured: 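Imaged fluorescence in situ signal for Wolbachia 23S rRNA per DAPI-counted host cell, given as a robust z-score within each plate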. Scale: Wolbachia per cell robust z: higher = more Wolbachia per host cell than the plate typical. Call rule: 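Active if absolute robust z reaches 1.5 in two or more of three replicates, leaving out multi- or no-target dsRNAs, genes unexpressed in JW18 and A1 wells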.
The screen tested about 24,000 reagents; shown is an unselected part of those that have a named target and a result. Of all reagents, about 1,210 (5%) are marked active. 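Inactive calls also include excluded dsRNAs with several or no targets, genes unexpressed in JW18, and well A1, regardless of score.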 Unmarked entries are inactive. No sequences are given here.

CG7546 (GeneID 38844) [DRSC08885]
- Wolbachia per cell robust z, rep 1: 0.0556
- Wolbachia per cell robust z, rep 2: 0.161
- Wolbachia per cell robust z, rep 3: -0.982

CG7546 (GeneID 38844) [DRSC10871]
- Wolbachia per cell robust z, rep 1: -2.76
- Wolbachia per cell robust z, rep 2: -0.811
- Wolbachia per cell robust z, rep 3: -2.33

CG7546 (GeneID 38844) [DRSC22148]
- Wolbachia per cell robust z, rep 1: -0.103
- Wolbachia per cell robust z, rep 2: 0.42
- Wolbachia per cell robust z, rep 3: -0.404

CG17005 (GeneID 34249) [DRSC02556]
- Wolbachia per cell robust z, rep 1: -0.61
- Wolbachia per cell robust z, rep 2: -0.298
- Wolbachia per cell robust z, rep 3: 0.77

robls54B (GeneID 5740248) [DRSC38867]
- Wolbachia per cell robust z, rep 1: -1.21
- Wolbachia per cell robust z, rep 2: -1.64
- Wolbachia per cell robust z, rep 3: 0.284

CG31010 (GeneID 318555) [DRSC14006]
- Wolbachia per cell robust z, rep 1: 0.903
- Wolbachia per cell robust z, rep 2: 0.393
- Wolbachia per cell robust z, rep 3: -1.07

CG13096 (GeneID 34183) [DRSC02198]
- Wolbachia per cell robust z, rep 1: -0.0675
- Wolbachia per cell robust z, rep 2: 0.761
- Wolbachia per cell robust z, rep 3: 0.853

cutlet (GeneID 44637) [DRSC00284]
- Wolbachia per cell robust z, rep 1: 1.12
- Wolbachia per cell robust z, rep 2: 0.542
- Wolbachia per cell robust z, rep 3: 0.409

cutlet (GeneID 44637) [DRSC29552]
- Wolbachia per cell robust z, rep 1: 1.05
- Wolbachia per cell robust z, rep 2: 0.476
- Wolbachia per cell robust z, rep 3: 1.19

tx (GeneID 43190) [DRSC16931]
- Wolbachia per cell robust z, rep 1: 0.969
- Wolbachia per cell robust z, rep 2: -0.458
- Wolbachia per cell robust z, rep 3: 0.51

tx (GeneID 43190) [DRSC27383]
- Wolbachia per cell robust z, rep 1: -5.65
- Wolbachia per cell robust z, rep 2: 0.125
- Wolbachia per cell robust z, rep 3: -1.2

ttv (GeneID 36614) [DRSC07709]
- Wolbachia per cell robust z, rep 1: 0.731
- Wolbachia per cell robust z, rep 2: -0.0777
- Wolbachia per cell robust z, rep 3: 0.0347

ttv (GeneID 36614) [DRSC26088]
- Wolbachia per cell robust z, rep 1: -0.397
- Wolbachia per cell robust z, rep 2: 0.161
- Wolbachia per cell robust z, rep 3: 3.68

Dyrk3 (GeneID 3885567) [DRSC21055]
- Wolbachia per cell robust z, rep 1: 0.673
- Wolbachia per cell robust z, rep 2: 0.44
- Wolbachia per cell robust z, rep 3: 0.0554

MAN1 (GeneID 37838) [DRSC04342]
- Wolbachia per cell robust z, rep 1: -7.14 (active)
- Wolbachia per cell robust z, rep 2: 0.19
- Wolbachia per cell robust z, rep 3: -5.26

His-Psi:CR31754 (GeneID 3772639) [DRSC22051]
- Wolbachia per cell robust z, rep 1: -0.202
- Wolbachia per cell robust z, rep 2: 0.514
- Wolbachia per cell robust z, rep 3: 1.72

Limited to “Wolbachia per cell robust z, rep 1” (2 entries from above):
robls54B (GeneID 5740248) [DRSC38867] = -1.21
CG31010 (GeneID 318555) [DRSC14006] = 0.903
